Measured values from several laboratories, pooled; numbers as filed in NIAID ChemDB.

Shared fields: growth or infection tests

Percent inhibition refers to the dose given; in toxicity tests it is the harm to the cells.

structure,organism,strain,mutations,cell line,method,setting,read-out,dose,value
Nc1ncnc2c1ncn2CCOCP(=O)(O)O,Epstein-Barr virus,,,P3HR-1,,,inhibition,100 µM,8%
Nc1nccc2c1ncn2[C@@]12OCOC1[C@H](O)[C@@H](CO)O2,Tacaribe virus,TRVL 11573,,VERO,cytopathic effect,,EC50,,2.3 µg/mL
O=c1[nH]cc(F)c(=O)[nH]1,Encephalitozoon cuniculi,,,MRC-5 fibroblasts,cytopathic effect,,inhibition,2 µg/mL,58%
O=c1c2cccnc2[se]n1N(c1ccccc1)c1cc(Cl)ccn1,Vesicular stomatitis virus,,,,,,MIC,,>1000 µg/mL
Cc1cn([C@H]2C[C@H](N=[N+]=[N-])[C@@H](CO)O2)c(=O)[nH]c1=O,HIV-2,2300,,PBMC,ELISA,,EC50,,0.013 µM
NC12CC3CC(CC(C3)C1)C2,Influenza A virus,A/Maryland/104/68,,,,,MIC,,0.05 µg/mL
Cn1c2ccccc2c2c1cc(C#N)c(=O)n2-c1ccc([N+](=O)[O-])cc1,HIV-1,Recombinant,RT-M41L A62V S68N G112S M184V,HeLa,luciferase,,fold resistance,,>1
O=[N+]([O-])c1cc(C(F)(F)F)ccc1N1CC[N+]2(CC1)CC[N+]1(CCN(c3ccc(C(F)(F)F)cc3[N+](=O)[O-])CC1)CC2,Coxsackie virus,B3,,HeLa,cytopathic effect,,EC50,,>70 µg/mL
COc1c(O)c(Cl)c(Cl)c(Cl)c1Cl,Saccharomyces cerevisiae,,,,,,MIC,,50 µg/mL
Nc1nc2c(ncn2C[C@H](CO)OCP(=O)(O)O)c(=O)[nH]1,Human herpesvirus 6,GS,,HSB-2,cytopathic effect,,EC50,,5.6 µM
[Al]#[P],Aspergillus terreus,,,,agar diffusion,,zone,1 mg/mL,4.2 mm
Nc1nc(=O)n([C@@H]2CS[C@H](CO)O2)cc1F,SIV,,,PBMC,p27 / ELISA,,EC90,,0.58 µM
Nc1ncnc2c1ncn2[C@@H]1O[C@H](CO)C(O)OC1O,Tacaribe virus,TRVL 11573,,VERO,cytopathic effect,,EC50,,0.5 µg/mL
O=c1[nH]cnc2c1ncn2[C@H]1CC[C@@H](CO)O1,HIV-1,HXB2,RT-M41L T215Y,HT4 + HT4 LacZ-1,plaque count,,fold resistance,,1.14
CCCn1[se]c2ncccc2c1=O,Vesicular stomatitis virus,,,,,,MIC,,400 µg/mL
Nc1ccn([C@@H]2C=C(CO)[C@@H](O)[C@@H]2O)c(=O)n1,Tacaribe virus,TRVL 11573,,VERO,cytopathic effect,,EC50,,0.03 µg/mL
N#Cc1cc2[nH]c3ccccc3c2n(-c2ccc([N+](=O)[O-])cc2)c1=O,HIV-1,Recombinant,RT-V118I M184V,HeLa,luciferase,,fold resistance,,3.3
NC(=O)c1[nH]nc([C@@H]2O[C@H](CO)[C@@H](O)[C@H]2O)c1O,Tacaribe virus,TRVL 11573,,VERO,cytopathic effect,,EC50,,0.4 µg/mL
NC(=O)c1c[se]c([C@@H]2O[C@H](CO)[C@@H](O)[C@H]2O)n1,Pichinde virus,COAN3739,,VERO 76,plaque count,,EC50,,4 µg/mL
COc1ccc(-c2oc3c4c(cc(O)c3c(=O)c2O)OC(C)(C)CC4)cc1,SIV,MAC251,,PBMC,PCR,,EC50,,16.6 µM
CC1(C)O[C@@H]1COc1c2occc2cc2ccc(=O)oc12,Plasmodium falciparum,CQ-sensitive,,RBC,,,EC90,,31 µg/mL
Nc1nc2c(ncn2C[C@@H]2COP(=O)(O)CO2)c(=O)[nH]1,Human herpesvirus 6,GS,,HSB-2,cytopathic effect,,EC50,,>25 µM
CO[C@@H]1[C@@H](O[C@@H]2O[C@H](C)[C@@H](O[C@H]3C[C@@](C)(O)[C@@H](O)[C@H](C)O3)[C@H](N(C)C)[C@H]2O)[C@@H](CC=O)C[C@@H](C)[C@@H](O[C@H]2CC[C@H](N(C)C)[C@H](C)O2)/C=C/C=C/C[C@@H](C)OC(=O)C[C@H]1O,Toxoplasma gondii,,,,,,inhibition,4 µg/mL,90%
Nc1nc(N)c2nnn(C[C@@H](CO)OCP(=O)(O)O)c2n1,Human herpesvirus 6,GS,,HSB-2,antigen / flow cytometry,,EC50,,>300 µM
CCN(CC)CCCC(C)Nc1ccnc2cc(Cl)ccc12,Encephalitozoon cuniculi,,,MRC-5 fibroblasts,cytopathic effect,,inhibition,5 µg/mL,0%
Nc1ncnc2c1ncn2[C@@H]1C=C(CO)[C@@H](O)[C@H]1O,Sindbis virus,,,,,,MIC,,>10 µg/mL
Nc1ncnc2c1ncn2Cc1c(F)cccc1Cl,Encephalitozoon cuniculi,,,MRC-5 fibroblasts,cytopathic effect,,EC50,,>15 µg/mL
COc1c(C)c2c(c(O)c1CC(=O)O)C(=O)OC2,Respiratory syncytial virus,TYPE A/NS-100,,HeLa,plaque count,,EC50,,0.16 µg/mL
CCOC(=O)C1=C[C@@H](OC2CCCCC2)[C@H](NC(C)=O)[C@@H](N)C1,Influenza B virus,B/HK/5/72,,MDCK cells,cytopathic effect,,EC50,,45 µM
CCO/N=C/c1ccc(OCCC2CCN(c3ccc(C)nn3)CC2)cc1,Rhinovirus,FEB (ICAM-1 receptor group 3),,KB,neutral red,,EC50,,0.026 µM
CC[C@@]1(O)C(=O)OCc2c1cc1n(c2=O)Cc2cc3c(Cl)c4c(cc3nc2-1)OCO4,Trypanosoma brucei,,,,,,EC50,,0.041 µM
CCCCCCCCN1[C@H](CN)[C@@H](O)[C@H](O)[C@H]1CO,Dengue virus,,,,,,EC50,,>50 µM
C#CC[C@@H](C(=O)N[C@H](/C=C/C(=O)OCC)C[C@@H]1CCNC1=O)n1cccc(NC(=O)c2cc(C)on2)c1=O,Rhinovirus,Serotype 38,,H1-HELA,cytopathic effect / XTT,,EC50,,0.052 µM
Nc1nc(N)c2ncn(CCOCP(=O)(O)O)c2n1,Varicella zoster virus,,,,,,MIC,,2 µg/mL
Nc1nc(-c2ccc(Br)cc2Br)c(SCC(=O)Nc2ccccc2N)s1,Influenza A virus (H1N1),A/PR/8/34,,MDCK cells,MTS,,EC50,,0.73 µM
CC1=CC(=O)c2c(O)cccc2C1=O,Aspergillus flavus,CCAM 080001,,,broth dilution,,MFC100,,20 µg/mL
Nc1ccn(C[C@H]2COP(=O)(O)CO2)c(=O)n1,Human herpesvirus 6,GS,,HSB-2,antigen / flow cytometry,,EC50,,5.6 µM
N=C(N)c1ncn([C@@H]2O[C@H](CO)[C@@H](O)[C@H]2O)n1,Influenza B virus,B/HONG KONG/5/72,,MDCK,virus yield,,inhibition,5 µg/mL,90%
CN(C)c1cc(NC(=O)CNC(C)(C)C)c(O)c2c1C[C@H]1C[C@H]3[C@H](N(C)C)C(=O)C(C(N)=O)=C(O)[C@@]3(O)C(=O)C1=C2O,Mycobacterium abscessus,V139,,,broth dilution,,MIC,,2 µg/mL
CCCCNC(=O)n1c(NC(=O)OC)nc2ccccc21,Cryptococcus neoformans,IU8698,,,,,EC50,,<3.8 µg/mL
Nc1nc(=O)n2ccn([C@@H]3O[C@H](CO)[C@@H](O)[C@H]3O)c2n1,West Nile virus,New York isolates,,VERO,cytopathic effect,,EC50,,9.5 µg/mL
C[C@@H]1CN(c2c(F)c(N)c3c(=O)c(C(=O)O)cn(C4CC4)c3c2F)C[C@H](C)N1,Encephalitozoon cuniculi,,,MRC-5 fibroblasts,cytopathic effect,,EC50,,<20 µg/mL
C[n+]1cccc(-n2[se]c3ccccc3c2=O)c1,Vesicular stomatitis virus,,,,,,MIC,,80 µg/mL
CC[C@@]1(O)C(=O)OCc2c1cc1n(c2=O)Cc2cc3cc4c(cc3nc2-1)OCO4,Trypanosoma brucei,,,,,,EC50,,0.16 µM
O=c1c2cccnc2[se]n1-c1ccc(Cl)cc1,Vesicular stomatitis virus,,,,,,MIC,,500 µg/mL
Nc1ncnc2c1ncn2C[C@@H](CO)OCP(=O)(O)O,Epstein-Barr virus,,,P3HR-1,,,inhibition,0.1 µM,7%
O=c1c2ccccc2[se]n1-c1cc([N+](=O)[O-])ccn1,Vesicular stomatitis virus,,,,,,MIC,,500 µg/mL
CC[C@H]1OC(=O)[C@H](C)[C@@H](O[C@H]2C[C@@](C)(OC)[C@@H](O)[C@H](C)O2)[C@H](C)[C@@H](O[C@@H]2O[C@H](C)C[C@H](N(C)C)[C@H]2O)[C@](C)(O)C[C@@H](C)/C(=N\OCOCCOC)[C@H](C)[C@@H](O)[C@]1(C)O,Encephalitozoon cuniculi,,,MRC-5 fibroblasts,cytopathic effect,,EC50,,>100 µg/mL
CC[C@@]1(O)C(=O)OCc2c1cc1n(c2=O)Cc2cc3ccccc3nc2-1,Pneumocystis carinii,,,,,7 d,inhibition,10 µg/mL,0%
Nc1ncnc2c1ncn2CCOCP(=O)(O)O,Varicella zoster virus,,,,,,MIC,,10 µg/mL
CC(=O)NC[C@H]1CN(c2ccc(N3CCN(C(=O)CO)CC3)c(F)c2)C(=O)O1,Staphylococcus aureus,Oxacillin-susceptible,,,,,MIC90,,1–4 µg/mL
C#C[C@]1(CO)O[C@@H](n2cnc3c(N)nc(F)nc32)CC1O,HIV-2,ROD9,K65R K70R Q151M M184V,MAGIC-5A,β-galactosidase / absorbance,,fold resistance,,17
Cc1cn([C@H]2C[C@H](N=[N+]=[N-])[C@@H](CO)O2)c(=O)[nH]c1=O,HIV-1,Recombinant,RT-A62T V118I M184V,HeLa,luciferase,,EC50,,0.0304 µM
Nc1nccc2c1ncn2[C@@H]1C[C@H](CO)[C@@H](O)[C@H]1O,Tacaribe virus,TRVL 11573,,VERO,cytopathic effect,,EC50,,2.3 µg/mL
CCc1nc(N)nc(N)c1-c1ccc(Cl)cc1,Encephalitozoon cuniculi,,,MRC-5 fibroblasts,cytopathic effect,,inhibition,5 µg/mL,0%
Nc1ncnc2c1ncn2CCOCP(=O)(O)O,Mouse cytomegalovirus,HPMPC-resistant,,C1271,plaque count,,EC50,,2.3 µM
Cc1ccccc1NC(=O)CSc1sc(N)nc1-c1ccc(Br)cc1Br,Influenza B virus,B/HK/5/72,,MDCK cells,cytopathic effect,,EC50,,>195 µM

The last 5 rows once more:

structure,organism,strain,mutations,cell line,method,setting,read-out,dose,value
Cc1cn([C@H]2C[C@H](N=[N+]=[N-])[C@@H](CO)O2)c(=O)[nH]c1=O,HIV-1,Recombinant,RT-A62T V118I M184V,HeLa,luciferase,,EC50,,0.0304 µM
Nc1nccc2c1ncn2[C@@H]1C[C@H](CO)[C@@H](O)[C@H]1O,Tacaribe virus,TRVL 11573,,VERO,cytopathic effect,,EC50,,2.3 µg/mL
CCc1nc(N)nc(N)c1-c1ccc(Cl)cc1,Encephalitozoon cuniculi,,,MRC-5 fibroblasts,cytopathic effect,,inhibition,5 µg/mL,0%
Nc1ncnc2c1ncn2CCOCP(=O)(O)O,Mouse cytomegalovirus,HPMPC-resistant,,C1271,plaque count,,EC50,,2.3 µM
Cc1ccccc1NC(=O)CSc1sc(N)nc1-c1ccc(Br)cc1Br,Influenza B virus,B/HK/5/72,,MDCK cells,cytopathic effect,,EC50,,>195 µM

An empty or dashed field is not shown. a–b is a range or a potency band. Fold resistance has wild type as its base. ECn: concentration that inhibits the pathogen or its effect by n%. A number after MIC or MFC names an inhibition level or a share of isolates. Rows are shuffled and stem from different studies. Zones are inhibition diameters on agar.